Pooled drug test results. Numbers come from NIAID ChemDB, via PubChem.

Common to all: tests on isolated targets; agent: HIV-1; target: Reverse transcriptase; read-out: IC50

a–b is a range or a potency band. Conditions beyond the fields shown may differ between rows. ICn: concentration for n% inhibition. An empty or dashed field is not shown.

structure | read by | changes | strain | result
CC(C)C[C@H](NC(=O)c1ccc(NC(=O)CSc2nnc(Br)n2-c2ccc(C3CC3)c3ccccc23)c(Cl)c1)C(=O)O | nucleotide incorporation / radiometric | RT-Y188L | - | 0.05–0.1 µM
CC(C)(C#Cc1ccc(NC(=O)CSc2nnnn2-c2cc(Br)ccc2Cl)c(Cl)c1)C(=O)O | PicoGreen / fluorescence | - | WT | <1 µM
Cc1cc(S(N)(=O)=O)ccc1NC(=O)CSc1nnc(Br)n1-c1ccc(C2CCC2)c2ccccc12 | nucleotide incorporation / radiometric | RT-Y181C | - | <0.05 µM
CC(C)(C)c1ccc(-n2nnnc2SCC(=O)Nc2ccc(C#Cc3ccccc3)cc2Cl)c(Cl)c1 | PicoGreen / fluorescence | RT-K103 Y181C | - | <1 µM
Cc1cc(C)c2c(c1)N(CC(C)C)C(=O)c1ccnnc1O2 | ELISA | - | - | <330 µM
CC(C)(C)c1ccc(-n2nnnc2SCC(=O)Nc2ccc(NS(=O)(=O)c3ccccc3)cc2Cl)c(Cl)c1 | PicoGreen / fluorescence | - | WT | <1 µM
CCOCn1c(Sc2ccccc2)c(CC)c(=O)[nH]c1=O | nucleotide incorporation | RT-Y181I | - | 4.7 µM
O=C(CSc1nnnn1-c1cccc2ccccc12)Nc1cccc(Cl)c1Cl | fluorescence | - | - | 0.05–0.1 µM
Cc1cc(S(N)(=O)=O)ccc1NC(=O)CSc1nnc(CF)n1-c1c(C)cc(C)c2ccccc12 | nucleotide incorporation / radiometric | - | - | <0.05 µM
CCN1c2ncc(CCOc3ccc(-c4ccc(N)c(C(=O)O)c4)cc3C)cc2C(=O)N(C)c2cccnc21 | nucleotide incorporation / radiometric | RT-K103N Y181C | IIIB | <0.05 µM
CCc1cc(CCc2nc3ccccc3o2)c(=O)[nH]c1C | nucleotide incorporation | RT-Y188F | - | 0.0273 µM
Cc1ccc2c(C)ccc(-n3c(Br)nnc3SCC(=O)Nc3ccc(S(N)(=O)=O)cc3Br)c2c1 | nucleotide incorporation / radiometric | - | - | <0.05 µM
CC(C)(C)c1ccc(-n2nnnc2SCC(=O)Nc2ccc(OCC(=O)Nc3cccc(C(=O)O)c3)cc2Cl)c(Cl)c1 | PicoGreen / fluorescence | - | WT | <1 µM
Cc1ccc2c(c1)N(C(C)C)C(=O)c1ccnnc1O2 | ELISA | - | - | <330 µM
O=C(CSc1nnnn1-c1ccccc1C(F)F)Nc1ccccc1[N+](=O)[O-] | fluorescence | - | - | 0.05–0.1 µM
CC(C)(C)Nc1cccnc1N1CCN(C(=O)c2cc3ccccc3[nH]2)CC1 | nucleotide incorporation | - | - | <100 µM
Cc1ccc(S(=O)(=O)n2cc(-c3cccc([N+](=O)[O-])c3)c3ccccc32)cc1 | RT activity | WT | - | 42 µM
Cc1ccc2c(c1)N(CC1CC1)C(=O)c1ccnnc1O2 | ELISA | - | - | <330 µM
O=C(c1cc2ccccc2[nH]1)N1CCN(c2nccnc2NC2CC2)CC1 | nucleotide incorporation | - | - | <100 µM
Cc1ccc(-c2ccccc2CCC(=O)Nc2cccs2)c(Cl)c1 | fluorescence | - | - | ≥0.1 µM
Cn1c(-c2ccc(Cl)cc2Cl)cs/c1=N\N=C1\C(=O)Nc2ccccc21 | RT activity / nucleotide incorporation / fluorescence | - | - | 19.6 µM
CCc1ccc(-n2c(Br)nnc2SCC(=O)Nc2ccc(C(=O)NCCN(C)C)cc2Cl)c2ccccc12 | nucleotide incorporation / radiometric | RT-Y181C | - | <0.05 µM
CC(C)(N)C#Cc1ccc(NC(=O)CSc2nnnn2-c2ccc(C3CC3)cc2Cl)c(Cl)c1F | PicoGreen / fluorescence | RT-K103 Y181C | - | <1 µM
CC(C)c1cnc(C2C=C(c3ccccc3[N+](=O)[O-])N=C(N)S2)cn1 | RT activity / ELISA / absorbance | - | - | 8.14 µM
CC(C)Nc1cccnc1N1CCN(C(=O)c2cc3cc(OCC(=O)O)ccc3[nH]2)CC1 | nucleotide incorporation | - | - | <100 µM
CC(C)c1cnc(C2C=C(c3ccc(O)cc3)N=C(N)S2)cn1 | RT activity / ELISA / absorbance | - | - | 65.16 µM
CCC(N)(C#Cc1ccc(NC(=O)CSc2nnnn2-c2ccc(C3CC3)cc2Cl)c(Cl)c1)CC | PicoGreen / fluorescence | - | WT | <1 µM
C=C(C)OC(=O)N1c2cc(Cl)ccc2NC(=S)C1(C)C | radiometric | - | LAI | 0.1 µM
CCc1ccc(-n2c(Br)nnc2SCC(=O)Nc2ccc(C(=O)NCC3CCCCC3)cc2Cl)c2ccccc12 | nucleotide incorporation / radiometric | RT-Y188L | - | >0.1 µM
CCNc1cccnc1N1CCN(C(=O)c2cc3cc(CC)ccc3[nH]2)CC1 | nucleotide incorporation | - | - | <100 µM
CC(C)(C)c1ccc(-n2nnnc2SCC(=O)Nc2ccc(OCCN3CCOCC3)cc2Cl)c(Cl)c1 | PicoGreen / fluorescence | - | WT | <1 µM
CCc1ccc(-n2c(C)nnc2SCC(=O)Nc2ccc(S(N)(=O)=O)cc2C)c2ccccc12 | nucleotide incorporation / radiometric | RT-Y181C | - | >0.1 µM
F/C(=C/c1ccccc1Cl)CSc1nnnn1-c1cccc2ccccc12 | fluorescence | - | - | ≥0.1 µM
CC(C)(C#Cc1ccc(NC(=O)CSc2nnnn2-c2cc(C(F)(F)F)ccc2Cl)c(Cl)c1)NC(=O)c1ncccn1 | PicoGreen / fluorescence | RT-K103 Y181C | - | <1 µM
CCN1c2ncc(CCOc3ccc(-c4cc(Cl)c(C(=O)O)cc4F)cc3C)cc2C(=O)N(C)c2cccnc21 | nucleotide incorporation / radiometric | RT-K103N Y181C | IIIB | <0.05 µM
CC1C(Sc2nnnn2-c2cccc3ccccc23)C1c1ccccc1Cl | fluorescence | - | - | 0.05–0.1 µM
O=S(=O)(c1ccccc1)c1c[nH]c2ccccc12 | RT activity | WT | - | 48 µM
CC(C)(C)c1ccc(-n2nnnc2SCC(=O)Nc2ccc(C(=O)Nc3ccc(N4CCOCC4)cc3)cc2Cl)c(Cl)c1 | PicoGreen / fluorescence | RT-K103 Y181C | - | <1 µM
Cc1ccc(-n2c(SCC(=O)Nc3ccc(S(=O)(=O)NCCC(=O)O)cc3Cl)nnc2C(F)F)c2c1CCCC2 | nucleotide incorporation / radiometric | RT-Y188L | - | >0.1 µM
CN(C)S(=O)(=O)c1ccc(NC(=O)CSc2nnnn2-c2ccc(C(C)(C)C)cc2Cl)c(Cl)c1 | PicoGreen / fluorescence | - | WT | <1 µM
Cn1c(-c2cccc([N+](=O)[O-])c2)cs/c1=N\N=C1\C(=O)Nc2ccc(Cl)cc21 | RT activity / nucleotide incorporation / fluorescence | - | - | 60 µM
CCN1c2ncc(CCOc3ccc(C(=O)NS(C)(=O)=O)cc3C)cc2C(=O)N(C)c2cccnc21 | nucleotide incorporation / radiometric | - | IIIB | <0.05 µM
O=C(CSc1nnc(Br)n1-c1ccc(C2CC2)c2ccccc12)Nc1ccc(C(=O)O)cc1Cl | nucleotide incorporation / radiometric | - | - | <0.05 µM
CCN(CC)CCOc1ccc(-c2ccc(NC(=O)CSc3nnnn3-c3ccc(C(C)(C)C)cc3Cl)c(Cl)c2)cc1 | PicoGreen / fluorescence | RT-K103 Y181C | - | <1 µM
CCOC(=O)[C@H](Cc1ccc(O)cc1)NC(=O)c1ccc(NC(=O)CSc2nnc(Br)n2-c2ccc(C3CC3)c3ccccc23)c(Cl)c1 | nucleotide incorporation / radiometric | RT-Y188L | - | 0.05–0.1 µM
CC(C)(C)c1ccc(-n2nnnc2SCC(=O)Nc2ccc(NC(=O)Nc3ccccc3)cc2Cl)c(Cl)c1 | PicoGreen / fluorescence | RT-K103 Y181C | - | <1 µM
O=C(CSc1nnc(Br)n1-c1ccc(C2CC2)cc1C(F)(F)F)Nc1ccc(C(=O)O)cc1Cl | nucleotide incorporation / radiometric | RT-Y181C | - | 0.05–0.1 µM
CC(C)(C)c1ccc(-n2nnnc2SCC(=O)Nc2ccc(-c3ccc(OCC(=O)O)cc3F)cc2Cl)c(Cl)c1 | PicoGreen / fluorescence | RT-K103 Y181C | - | <1 µM
O=C(CSc1nnc(C(F)F)n1-c1ccc(C2CC2)c2ccccc12)Nc1ccc(C(=O)O)cc1Cl | nucleotide incorporation / radiometric | RT-Y188L | - | >0.1 µM
CS(=O)(=O)c1ccccc1NC(=O)CSc1nnnn1-c1cccc2ccccc12 | fluorescence | - | - | ≥0.1 µM
CC(C)(O)C#Cc1ccc(NC(=O)CSc2nnnn2-c2cc(C(C)(C)C)ccc2Cl)c(Cl)c1 | PicoGreen / fluorescence | RT-K103 Y181C | - | <1 µM
Cn1c(-c2ccccc2)cs/c1=N\N=C1\C(=O)Nc2ccccc21 | RT activity / nucleotide incorporation / fluorescence | - | - | 15 µM
CCN1c2ncc(CCOc3ccc(C(=O)Nc4ccc(C(=O)O)cn4)cc3C)cc2C(=O)N(C)c2cccnc21 | nucleotide incorporation / radiometric | - | IIIB | <0.05 µM
Cc1cc(C2CC2)c2ccccc2c1-n1c(Br)nnc1SCC(=O)Nc1ccc(S(=O)(=O)O)cc1Cl | nucleotide incorporation / radiometric | RT-Y181C | - | <0.05 µM
CCOC(=O)CN1C(=O)c2ccnnc2Oc2c(C)cc(C)cc21 | ELISA | - | - | ~330 µM
O=C(COc1ccc(NC(=O)CSc2nnnn2-c2ccc(C3CC3)cc2Cl)c(Cl)c1)NCCc1cccc[n+]1[O-] | PicoGreen / fluorescence | RT-K103 Y181C | - | <1 µM
Cc1[nH]c2ccccc2c1S(=O)(=O)c1ccccc1 | RT activity | WT | - | 88 µM
CC(C)c1cnc(C2C=C(c3ccc([N+](=O)[O-])cc3)N=C(N)S2)cn1 | RT activity / ELISA / absorbance | - | - | 3.26 µM
CC(C)(COc1ccc(NC(=O)CSc2nnnn2-c2ccc(C3CC3)cc2Cl)c(Cl)c1)C(=O)O | PicoGreen / fluorescence | - | WT | <1 µM
Cn1c(-c2ccc(Cl)c(Cl)c2)cs/c1=N\N=C1\C(=O)Nc2ccc(Cl)cc21 | RT activity / nucleotide incorporation / fluorescence | - | - | 98 µM
CC(C)(C)c1ccc(-n2nnnc2SCC(=O)Nc2ccc(NC(=O)c3cccc(O)c3)cc2Cl)c(Cl)c1 | PicoGreen / fluorescence | - | WT | <1 µM
COc1ccc(/C=C/CSc2nc([C@H](C)c3c(F)cccc3F)c(C)c(=O)[nH]2)cc1 | RT activity / nucleotide incorporation | WT | - | 0.01 µM
CC(C)(C#Cc1ccc(NC(=O)CSc2nnnn2-c2cc(C(C)(C)C)ccc2Cl)c(Cl)c1)NC(=O)c1cc[n+]([O-])cc1 | PicoGreen / fluorescence | - | WT | <1 µM
CCc1ccc(-n2c(Br)nnc2SCC(=O)Nc2ccc(C(=O)NCC(OC)OC)cc2Cl)c2ccccc12 | nucleotide incorporation / radiometric | - | - | <0.05 µM
O=C(CSc1nnnn1-c1ccc(C2CC2)cc1Cl)Nc1ccc(C#CCCN2CCNCC2)cc1Cl | PicoGreen / fluorescence | RT-K103 Y181C | - | <1 µM
Cc1ccccc1C1=CC(c2cnc(C(C)C)cn2)SC(N)=N1 | RT activity / ELISA / absorbance | - | - | 89.33 µM
Cc1cc(C)cc(S(=O)(=O)n2cc(-c3cccc([N+](=O)[O-])c3)c3ccccc32)c1 | RT activity | WT | - | 96 µM
COc1cccc(C2=CC(c3cnc(C(C)C)cn3)SC(N)=N2)c1 | RT activity / ELISA / absorbance | - | - | >100 µM
O=S(=O)(c1ccc(Cl)cc1)c1c[nH]c2ccccc12 | RT activity | WT | - | 61 µM
CCc1ccc(-n2c(Br)nnc2SCC(=O)Nc2ccc(S(=O)(=O)O)cc2Br)c2ccccc12 | nucleotide incorporation / radiometric | - | - | <0.05 µM
Cc1ccc(-n2c(C)cnc2SCC(=O)Nc2ccc(-c3ccc(CC(=O)O)cc3)cc2Cl)c(Cl)c1 | PicoGreen / fluorescence | - | WT | <1 µM
COC(=O)[C@H](CC(C)C)NC(=O)c1ccc(NC(=O)CSc2nnc(Br)n2-c2ccc(C3CC3)c3ccccc23)c(Cl)c1 | nucleotide incorporation / radiometric | - | - | <0.05 µM
Cn1c(-c2ccc(Br)cc2)cs/c1=N\N=C1\C(=O)Nc2ccccc21 | RT activity / nucleotide incorporation / fluorescence | - | - | 100 µM

The last 7 rows once more:

structure	read by	changes	strain	result
Cc1cc(C)cc(S(=O)(=O)n2cc(-c3cccc([N+](=O)[O-])c3)c3ccccc32)c1	RT activity	WT	-	96 µM
COc1cccc(C2=CC(c3cnc(C(C)C)cn3)SC(N)=N2)c1	RT activity / ELISA / absorbance	-	-	>100 µM
O=S(=O)(c1ccc(Cl)cc1)c1c[nH]c2ccccc12	RT activity	WT	-	61 µM
CCc1ccc(-n2c(Br)nnc2SCC(=O)Nc2ccc(S(=O)(=O)O)cc2Br)c2ccccc12	nucleotide incorporation / radiometric	-	-	<0.05 µM
Cc1ccc(-n2c(C)cnc2SCC(=O)Nc2ccc(-c3ccc(CC(=O)O)cc3)cc2Cl)c(Cl)c1	PicoGreen / fluorescence	-	WT	<1 µM
COC(=O)[C@H](CC(C)C)NC(=O)c1ccc(NC(=O)CSc2nnc(Br)n2-c2ccc(C3CC3)c3ccccc23)c(Cl)c1	nucleotide incorporation / radiometric	-	-	<0.05 µM
Cn1c(-c2ccc(Br)cc2)cs/c1=N\N=C1\C(=O)Nc2ccccc21	RT activity / nucleotide incorporation / fluorescence	-	-	100 µM